Earlier results in publication PMC8472716.

Target: TLR4 (Homo sapiens) (UniProt O00206)

In the case of “SARS-CoV-2 spike trimer (from UniProt P0DTC2)”, the Kd is listed as 0.3 µM.
